Where two headings read alike, the source gives them in different places.

Amino acid sequences for entries named in this document (tags omitted).
UniProt A0A1S5RAG6, entry or part of it, added parts left off: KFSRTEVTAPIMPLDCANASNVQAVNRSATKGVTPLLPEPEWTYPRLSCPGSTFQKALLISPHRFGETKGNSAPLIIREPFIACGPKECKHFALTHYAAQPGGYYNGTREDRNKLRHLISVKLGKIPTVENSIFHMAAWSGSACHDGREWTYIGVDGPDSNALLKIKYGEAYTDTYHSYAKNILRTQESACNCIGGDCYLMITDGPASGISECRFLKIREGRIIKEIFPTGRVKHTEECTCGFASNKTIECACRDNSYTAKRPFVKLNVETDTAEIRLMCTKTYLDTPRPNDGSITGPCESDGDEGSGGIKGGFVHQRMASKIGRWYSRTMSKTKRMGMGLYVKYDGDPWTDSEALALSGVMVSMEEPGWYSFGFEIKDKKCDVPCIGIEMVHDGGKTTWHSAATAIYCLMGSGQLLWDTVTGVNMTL

Experiment [1] has as its target T1, NA from influenza B virus isolates (Influenza B virus, UniProt A0A1S5RAG6). The experiment in a line: NA-STAR/NA-XTD chemiluminescent neuraminidase inhibition assay, influenza B. Format: biochemical.
Experiment [2] deals with T1, NA from influenza B virus isolates. To be noted: cited from earlier work.

As to `CC(=O)N[C@H]1[C@H]([C@H](O)[C@H](O)CO)OC(C(=O)O)=C[C@@H]1N=C(N)N` [zanamivir], the Susceptible result was “Yes” in experiment [1] (Influenza B isolates 2007‐2008); “susceptible” in experiment [1] (Influenza B isolates 2009‐2013); “Yes” in experiment [1] (Influenza B isolates 2009‐2013, listed as Zanamivir). Besides, the “susceptibility phenotype of reference virus” value was “resistant” in experiment [2] (B/Memphis/20/1996, R152K (N2 numbering) or R150K (N1 numbering) NA substitution) and “susceptible” in experiment [2] (B/Memphis/20/1996, wild‐type).

(Values after PMC6304311 (Influenza and Other Respiratory Viruses, 2018).)
